Measurements taken from patent US9315482B2, “Derivatives useful as antiviral agents” (priority 2010, dated 2016).

System: chikungunya virus (CHIKV)
Assay: Inhibition of chikungunya virus (CHIKV) in HEK-293T cells, glycoprotein E2 immunostaining
Conditions: for in vitro replication of CHIKV (glycoprotein E2 expression by immunostaining): HEK-293T cells, M.O.I.=0.1, compounds at 2.5 μg/ml, FIG. 1; for in vitro replication of the chikungunya virus (CHIKV) (anti-E2 immunostaining): Example 35, HEK-293T cells pre-treated, infected 3 hours later, MOI=1, 24 hours, FIG. 9

SMILES	in vitro replication of CHIKV (glycoprotein E2 expression by immunostaining)	in vitro replication of the chikungunya virus (CHIKV) (anti-E2 immunostaining)
O=c1oc2ccccc2c2c1C(c1c[nH]c3ccccc13)C([N+](=O)[O-])O2 (stereo not shown) [Example 123-G05, 3-(1H-Indol-3-yl)-2-nitro-2,3-dihydrofuro[3,2-c]chromen-4-one]	blocked	–
O=C1CCCc2occ(-c3cccc(Cl)c3)c21 [Example 129-G03, 3-(3-chlorophenyl)-6,7-dihydro-5H-benzofuran-4-one]	blocked	blocked
C=Cc1cccc(-c2coc3c2C(=O)CCC3)c1 [GAC50, 3-(3-ethenylphenyl)-6,7-dihydro-5H-benzofuran-4-one]	–	blocked
